The exact form of at least one protein or probe is not confirmed. Tags and fusion partners may be left off the protein sequences shown.
Target: T1, AgrA (Staphylococcus aureus) (UniProt Q5HEG2)
T1 sequence (looked up, limits assumed): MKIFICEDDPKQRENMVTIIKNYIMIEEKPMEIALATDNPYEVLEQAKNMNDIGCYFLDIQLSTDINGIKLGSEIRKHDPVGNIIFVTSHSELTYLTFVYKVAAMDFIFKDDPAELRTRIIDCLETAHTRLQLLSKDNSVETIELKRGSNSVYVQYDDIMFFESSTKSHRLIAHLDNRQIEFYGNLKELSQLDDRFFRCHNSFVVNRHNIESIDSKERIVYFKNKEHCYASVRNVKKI
Assay: EMSA
Conditions: 50 mM KCl, 1 mM EDTA, 0.05% Triton X-100, 5% glycerol, recombinant protein, protein details: IMPACT intein/chitin tag, removed by DTT cleavage, label: 6-FAM (5' in Table 2, 3' in Methods text)

[1] = no Azan-7, 10 mM HEPES pH 7.6, 2 mM DTT

## AATTTTTCTTAACTAGTCGTTTTTTATTCTTAACTGTAAATTTTT (double strand) [P3 promoter oligonucleotide]
[1]
  binding result: binds

## TACATTTAACAGTTAAGTATTTATTTCCTACAGTTAGGCAATATAATG (double strand) [P2 promoter oligonucleotide]
Azan-7 50-200 uM, not significantly affected, 10 mM HEPES pH 7.6, 2 mM DTT
  binding result: binds
[1]
  binding result: binds

— PMC7899991, “A Novel Aza-Derivative Inhibits agr Quorum Sensing Signaling and Synergizes Methicillin-Resistant Staphylococcus aureus to Clindamycin” (Frontiers in Microbiology, 2021)
